“Also recorded” adds a separate entry of the source.
Tests used:
human VDR = human VDR (Homo sapiens, UniProt P11473); assay: Transient transactivation assay (CYP24-Luc), antagonist mode with 3 nM 1,25D3, HEK293T cells; type: cell-based; conditions: antagonists; transient transactivation assay in the presence of 3 nM 1,25D3
VDR:NCoR = VDR:NCoR (Homo sapiens, UniProt P11473); assay: Mammalian 2-hybrid assay, recruitment of corepressor NCoR by VDR, Cos7 cells; conditions: antagonists, normalized to DMSO set to 1
[1] = system: human VDR ligand-binding domain; conditions: read-out: Tox21 IC 50; antagonist mode; Tox21 qHTS data set; cited from earlier work
VDR:RXRα = VDR:RXRα (Homo sapiens, UniProt P11473); assay: Mammalian 2-hybrid assay, recruitment of RXRα by VDR, Cos7 cells; conditions: antagonists with 1,25D3; -SRC-1; percentage of vitamin D3; conc. in Fig 6: phenylarsine oxide 0.37, dibutyltin dichloride 1, K dicyanoaurate 6, aristolochic acid, carfizomib 12, menadiol 3 μM
VDR:SRC-1 = VDR:SRC-1 (Homo sapiens, UniProt P11473); assay: Mammalian 2-hybrid assay, recruitment of coactivator SRC-1 by VDR, Cos7 cells; conditions: antagonists with 1,25D3; -RXR; percentage of vitamin D3; conc. in Fig 6: phenylarsine oxide 0.37, Cd chloride 12, dibutyltin dichloride 1, aristolochic acid 12 μM
[2] = biological target: VDR:RXR, VDR:SRC-1 and VDR:NCoR interactions (Homo sapiens, UniProt P11473); assay: Mammalian 2-hybrid assay, summary in words of VDR coregulator interactions; type: cell-based; conditions: antagonists; with or without co-transfected full length RXR or SRC-1; listed as phenylarsine oxide

Protein sequences, listed by entry. Tags and fused reporters are not part of them. Lines headed by an entry give the natural chain unless they say otherwise; changes in a name come on top.
UniProt P11473: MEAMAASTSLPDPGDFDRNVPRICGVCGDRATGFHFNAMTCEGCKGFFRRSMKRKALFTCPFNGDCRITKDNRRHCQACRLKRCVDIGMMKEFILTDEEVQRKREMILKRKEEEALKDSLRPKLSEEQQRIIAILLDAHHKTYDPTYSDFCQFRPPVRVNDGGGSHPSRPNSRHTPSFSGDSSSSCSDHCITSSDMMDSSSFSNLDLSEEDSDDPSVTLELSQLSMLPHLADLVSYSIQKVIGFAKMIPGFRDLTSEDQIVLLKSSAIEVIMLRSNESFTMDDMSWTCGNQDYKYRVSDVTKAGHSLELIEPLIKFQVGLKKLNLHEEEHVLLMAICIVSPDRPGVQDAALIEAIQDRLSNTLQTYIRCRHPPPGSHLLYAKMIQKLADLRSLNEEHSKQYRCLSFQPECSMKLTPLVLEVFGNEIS

O=[As]c1ccccc1 (stereo not shown)
Activity (human VDR): Active
Fold Change (pMNCoR + RXRα) (VDR:NCoR; +RXR, conc. in Fig 6: phenylarsine oxide 0.37, proscillaridin, aristolochic acid 12 μM): 1.5 fold
Fold Change (pMNCoR + EpSG5) (VDR:NCoR; -RXR, conc. in Fig 6: K dicyanoaurate 6, proscillaridin, aristolochic acid 12, thiram 1 μM): 1.2 fold
IC50 [1]: 97.5 nM
% Induction (pMRXRα + EpSG5) (VDR:RXRα): 22.8%
% Induction (pMSRC-1NR + EpSG5) (VDR:SRC-1): 45.4%
pattern of change of 1,25D3 induced VDR:coregulator interaction [2]: selectively inhibit VDR:RXR interactions only in the absence of full length wild type SRC-1; also recorded: selectively inhibited VDR:SRC-1 interactions only in the absence of full length wild type RXR
